PubChem BioAssay AID624099 | ICCB-Longwood – 2012

Test: 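Human genes that papillomavirus E2 requires to repress the HPV18 LCR promoter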 (primary screen)
Cell system: human C33A cervical carcinoma cells (HPV-negative) stably expressing BPV1 E2 and an HPV18 LCR luciferase reporter
Knock-down reagent: siRNA pool against human genes, 40 nM
Duration: 72 h
Detection: 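HPV18 LCR reporter light per well, converted to plate-wise z-scores that exclude control wells, and averaged over triplicate plates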
Reading the numbers: mean z-score and z-score: higher = stronger reporter signal, weaker E2 silencing
Active means: 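Hit if mean z-score reaches 2 and two or more of three replicate z-scores also reach 2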
The whole screen tested about 21,000 reagents; this is a random part of them. In the full data, 497 (2.4%) are marked active. 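Higher z means weaker E2 silencing; only reporter increases were scored, and knock-downs that hurt cell survival may mask genuine repressor factors.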 Unmarked entries are inactive.

Gene,PubChem SID,mean z-score,"z-score, replicate A","z-score, replicate B","z-score, replicate C"
CLEC7A,SID134325052,0.83,0.68,0.85,0.97
HTR3C,SID134311624,0.25,0.36,-0.04,0.44
LOC401620 (retired record),SID134329165,-1.03,-1.29,-0.93,-0.87
ZDBF2,SID134327268,0.4,0.74,0.57,-0.11
NAA25,SID134318670,-0.69,-0.99,-0.7,-0.39
CFAP52,SID134322590,0.06,0.64,-0.59,0.13
ALK,SID56478483,-0.14,-0.68,0.08,0.19
LOC388438 (retired record),SID134328830,-0.14,-0.04,-0.45,0.07
CSMD3,SID134312807,-0.07,-0.11,-0.37,0.29
NDUFAF5,SID134318482,0.03,0.17,-0.15,0.06
AURKA,SID56478679,0.21,-0.08,0.21,0.49
LAT,SID134324229,-0.57,-0.7,-0.3,-0.7
THBS1,SID134323510,0.67,0.78,0.68,0.55
EFR3A,SID134326407,-0.97,-0.76,-1.23,-0.91
ARHGAP4,SID134309973,0.42,0.39,0.51,0.36
BTF3,SID134320617,-0.63,-0.48,-0.72,-0.7
FMR1NB,SID134320749,-0.17,-0.04,-0.19,-0.28
BCL9L,SID134315274,0.79,0.22,0.78,1.35
ATP5F1B,SID134322464,-0.94,-0.86,-0.93,-1.04
COL2A1,SID134317312,0.78,0.98,0.55,0.81
MAGEA8,SID134321305,0.04,-0.07,0.05,0.16
UBXN6,SID134313639,0.51,0.27,0.61,0.64
STAP1,SID134316684,-0.85,-0.63,-0.87,-1.07
USP1,SID134311482,0.16,0.32,0.12,0.04
ZFYVE28,SID134325962,-0.01,-0.51,0.53,-0.05
LINC00928,SID134328588,-0.91,-0.83,-0.96,-0.95
DNAJC9,SID134321774,0.65,0.71,0.8,0.44
NEK5,SID134325142,0.49,0.28,0.52,0.66
ZIC4,SID134321442,1.11,1.12,1.11,1.09
TBC1D27P,SID134325591,-2.21,-2.23,-2.33,-2.07
EXOC7,SID134325027,0.39,0.17,0.53,0.48
GLYCTK,SID134311964,-2.24,-2.26,-2.16,-2.29
MYL7,SID134325054,-0.57,-0.43,-0.69,-0.6
MIER3,SID134319650,-0.62,-0.13,-0.94,-0.78
IVNS1ABP,SID134320590,-0.01,0.17,-0.23,0.04
GNPDA1,SID134310706,-0.4,-0.45,-0.37,-0.39
CD160,SID134323537,0.36,0.42,0.08,0.57
EDA2R,SID134312976,-0.95,-1.02,-1.02,-0.82
ZNF653,SID134320527,1.22,1.62,1.15,0.89
C1orf210,SID134322489,-1.79,-1.94,-1.85,-1.58
FANCC,SID134315397,-0.3,-0.2,-0.35,-0.36
RAET1L,SID134321055,0.82,1.21,0.78,0.46
RIMBP3,SID134326069,-0.37,-1.03,-0.17,0.1
ZNF443,SID134322200,0.36,0.7,-0.09,0.47
UPP2,SID134311936,1.13,1,0.71,1.67
KRTDAP,SID134329544,-1.23,-1.19,-1.47,-1.04
DYRK2,SID56478857,0.64,0.83,0.88,0.21
NCSTN,SID134312975,-0.73,-0.59,-0.85,-0.75
SLC25A39,SID134312367,-0.34,-0.25,-0.35,-0.41
EMC6,SID134318817,-1.94,-1.83,-2.05,-1.95
KIF15,SID134310686,-0.14,0.05,-0.29,-0.19
ESF1,SID134319283,0.71,0.84,0.7,0.59
POLDIP3,SID134322854,0.13,-0.02,0.38,0.03
PHF7,SID134322987,-0.71,-0.24,-0.97,-0.93
B3GNT3,SID134313871,-0.59,-0.33,-0.57,-0.85
MRPS31,SID134316406,0.94,1.15,0.85,0.83
DDX5,SID134310073,0.17,0.52,0,0.01

Part of the list above, set out differently.
Gene	PubChem SID	mean z-score	z-score, replicate A	z-score, replicate B	z-score, replicate C
ATP5F1B	SID134322464	-0.94	-0.86	-0.93	-1.04
COL2A1	SID134317312	0.78	0.98	0.55	0.81
MAGEA8	SID134321305	0.04	-0.07	0.05	0.16
UBXN6	SID134313639	0.51	0.27	0.61	0.64
STAP1	SID134316684	-0.85	-0.63	-0.87	-1.07
USP1	SID134311482	0.16	0.32	0.12	0.04
